{
  "source": "paper PMC8286831",
  "about": "“Identifying SARS-CoV-2 antiviral compounds by screening for small molecule inhibitors of nsp13 helicase” (Biochemical Journal, 2021)",
  "molecular_target": "SARS-CoV-2 nsp13 helicase (Severe acute respiratory syndrome coronavirus 2, UniProt P0DTD1)",
  "type": "biochemical",
  "note": "Like-named read-outs stand apart in the source and are kept apart here.",
  "data": [
    {"substance": "PDK1/Akt/Flt Dual Pathway Inhibitor", "values": [
      {"measurement": "IC50", "setting": "read-out: IC50 + 0.02% Tween-20", "result": 900, "unit": "nM"},
      {"measurement": "IC50", "setting": "read-out: IC50 No detergent", "result": 1100, "unit": "nM"}
    ]}
  ]
}
